These results are taken from PMC13438699 (Nature Communications, 2026).

The target in experiment [1] is T1, H1 stem (#4900), HA stem construct derived from the A/Brisbane/59/2007 (H1N1) HA (Designed HA stem #4900 from influenza A …, stabilised).
T1 chain 1: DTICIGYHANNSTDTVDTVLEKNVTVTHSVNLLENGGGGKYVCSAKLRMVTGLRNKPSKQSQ
T1 chain 2: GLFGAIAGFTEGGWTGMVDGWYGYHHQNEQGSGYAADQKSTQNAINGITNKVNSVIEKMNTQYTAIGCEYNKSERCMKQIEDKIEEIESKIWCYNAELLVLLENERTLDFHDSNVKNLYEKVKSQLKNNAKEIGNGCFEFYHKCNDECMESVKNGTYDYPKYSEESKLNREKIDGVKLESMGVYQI
The experiment is described as follows: BLI. To be noted: both partners purified.

Experiment [2] concerns the target T2, H1 stem (#4900), HA stem construct derived from the A/Brisbane/59/2007 (H1N1) HA (Designed HA stem #4900 from influenza A …, stabilised).
T2 chain 1: T1 chain 1
T2 chain 2: T1 chain 2
The experiment is described as follows: BLI. To be noted: both partners purified.

B1: HB31 VH R55G germline revertant Fab (Fab, V domains shown)
VH: EVQLLESGGGLVQPGGSLRLSCTVSGFTSSNYDMSWVRQAPGKGLEWVSGISGTGGDTYYADSVKGRFTISRDNSKNTLSLQMNSLRADDTAVYFCARDRPVLRYFDWQPYGLDVWGKGTTVTVSS
VL: QSALTQPPSASGSPGQSVTISCTGTSSDVGGYNYVSWYQQYPSKAPKLMIYEVSKRPSGVPDRFSGSKSGNTASLTVSGLQAEDEADYYCNSYAGSNLYVFGTGTKVTVL
As to B1, in experiment [1], binding was characterised by a dissociation constant (Kd) of 5.8 nM.

B2: HB31 VH R55G revertant, IgG format (antibody, V domains shown)
VH: B1 VH
VL: B1 VL
Turning to B2, the “fold weaker KD than HB31 wild type IgG” value in experiment [2] was 4 fold.

B3: HB31 VH R55G germline revertant IgG (antibody, V domains shown)
VH: B1 VH
VL: B1 VL
notes: copies: 2 + 2
B3: the affinity in experiment [1], expressed as Kd, was 10.7 nM.
